Compound potency records, mixed from different reports. Data source: NIAID ChemDB in PubChem.

Shared fields: cytotoxicity tests; cells: HeLa; read-out: CC50

CCn is the concentration with n% toxicity to the cells. Conditions beyond the fields shown may differ between rows. Two numbers with a dash give a range or band.

structure | value
O=c1c(Cc2ccccc2)c(O)c2cc(Cc3ccccc3)cnc2n1O | 0.38 µM
Nc1ncnc2c([C@@H]3O[C@H](CO)C[C@H]3O)[nH]nc12 | >400 µg/mL
NC1CCCON2CCc3c([nH]c4ccccc34)[C@H]12 | 340 µg/mL
C#CCSc1n[nH]c(-c2ccc(C(F)(F)F)cc2)n1 | 6.22 µg/mL
CC(C)(C)C(=O)OCn1nc([C@@H]2O[C@H](CO)[C@@H](O)[C@H]2O)c2ncnc(N)c21 | 40 µg/mL
COc1cc(OC[C@H]2CC[C@@H](COCc3ccccc3)O2)ncn1 | 67 µM
Cc1nc(CC(=O)NN)nn1C | >400 µg/mL
Nc1ncnc2c1ncn2[C@@H]1C=C(CO)[C@@H](O)C1 | >5 µg/mL
C[C@H]1NCc2cc(-c3c(F)cc4c(=O)c(C(=O)O)cn(C5CC5)c4c3OC(F)F)ccc21 | 177 µg/mL
Nc1ncnc2c([C@@H]3O[C@H](CSCCC(N)C(=O)O)[C@@H](O)[C@H]3O)[nH]nc12 | 400 µg/mL
COc1ccc(-n2c(Cc3nc4n(n3)CCCC4)n[nH]c2=S)cc1 | 400 µg/mL
COc1ccc2[nH]c3c(c2c1)CCN1OCSCC(N)[C@@H]31 | 0.4 µg/mL
CCCCSc1n[nH]c(-c2ccc([N+](=O)[O-])c(C)c2)n1 | 4.9 µg/mL
Cc1cn([C@H]2C[C@H](O[Si](C)(C)C(C)(C)C)[C@@H](/C=C\C#N)O2)c(=O)[nH]c1=O | 50–100 µM
O=C(c1ccccc1)c1ccc(Oc2ccc(S(=O)(=O)Cc3ccccc3)cn2)cc1 | >10 µg/mL
CCOc1cc(O)c(C(=O)NCc2ccc(NC)cc2)c(OC)c1 | 43 µg/mL
CCn1nc(-c2ccc(Cn3ccc4ccccc43)cc2)nc1C | 400 µg/mL
COC1=C(OC)/C(=C/Cn2cnc3c(Cl)ncnc32)OC1=O | 23.37 µM
O=C(O)c1cn(C2CC2)c2cc(N3CCNCC3)ccc2c1=O | 168 µg/mL
Nc1ncnc2c1ncn2[C@@H]1O[C@H](CSCCC(N)C(=O)O)C[C@H]1O | 400 µg/mL
CCS(=O)(=O)c1cccnc1Oc1ccc(C(=O)c2ccccc2)cc1 | >10 µg/mL
CC1(C)[C@@H](CO)CC[C@@]1(C)Cn1cnc2c(=O)[nH]cnc21 | >400 µg/mL
N#Cc1cccnc1Oc1ccc(C(=O)c2ccccc2)cc1 | >10 µg/mL
COc1ccc(-c2cc(=O)c3c(O)cc(O)cc3o2)cc1 | 88 µg/mL
Nc1cc(OC[C@H]2CC[C@@H](CO)O2)nc(N)n1 | >250 µM
Nc1nccc2c1ncn2[C@H]1CC[C@@H](CO)O1 | 400 µg/mL
CC(C)CS[C@H]1C[C@@H](n2cnc3c(N)ncnc32)[C@H](O)[C@@H]1O | ≥400 µg/mL
O=c1cc(-c2cccc(-c3cccc(CNCc4ccccc4)c3)c2)c2cccnc2n1O | <100 µM
COc1cc(OC[C@H]2CC[C@@H](COCc3ccccc3)O2)nc(N)n1 | 171 µM
CN(Cc1cccc(Cn2cncn2)c1)c1cc(=O)n(O)c2ncccc12 | <100 µM
CC1(C)[C@@H](CO)CC[C@@]1(C)Cn1cc(I)c(=O)[nH]c1=O | >400 µg/mL
Nc1ncnc2c([C@H]3C[C@H](O)[C@@H](CO)O3)[nH]nc12 | >400 µg/mL
COc1c(N2CCNC(C)C2)c(F)cc2c(=O)c(C(=O)O)cn(C3CC3)c12 | 252 µg/mL
C=CCSc1n[nH]c(-c2cccc([N+](=O)[O-])c2C)n1 | 26.42 µg/mL
CCn1cc(C(=O)O)c(=O)c2ccc(C)nc21 | 188 µg/mL
CCOc1cc(O)c(C(=O)NCc2ccc(OC)cc2)c(OC)c1 | 30 µg/mL
CC(C(=O)O)[C@H]1O[C@@H](CC(=O)c2ccc(N)cc2)[C@H](C)C[C@H]1C | >100 µg/mL
CC(C)S(=O)(=O)n1c(N)nc2ccc(/C(=N/O)c3ccccc3)cc21 | 3.6 µg/mL
Nc1nc(OC[C@H]2CC[C@@H](COCc3ccccc3)O2)cc(OC[C@@H]2CC[C@H](COCc3ccccc3)O2)n1 | 65 µM
C=CCSc1n[nH]c(-c2ccco2)n1 | 59.3 µg/mL
NCc1cccc(CNc2cc(=O)n(O)c3ncccc23)c1 | <100 µM
CC(C)[C@@H]1CC[C@@]2(C)C1C1=CCC3[C@@]4(C)CC[C@@H](O)C(C)(C)C4CC[C@@]3(C)[C@]1(C)C[C@@H]2O | >10 µM
CC1(C)[C@@H](CO)CC[C@@]1(C)Cn1ccc(=O)[nH]c1=O | >400 µg/mL
Nc1nc(Cl)cc(OC[C@H]2O[C@H](COCc3ccccc3)[C@@H](OCc3ccccc3)[C@H]2OCc2ccccc2)n1 | >250 µM
COC1=C(OC)/C(=C/C(n2cnc3c(Cl)ncnc32)P(=O)(OC)OC)OC1=O | 28.14 µM
C=C(C)[C@@H]1CC[C@@]2(CO)C1C1CCC3[C@@]4(C)CC[C@@H](O)C(C)(C)C4CC[C@@]3(C)[C@]1(C)C[C@@H]2O | >10 µM
C#CCSc1n[nH]c(-c2cccc([N+](=O)[O-])c2C)n1 | 16.37 µg/mL
Nc1nccc2c1ncn2[C@@H]1C[C@H](CO)[C@@H](O)[C@H]1O | >250 µg/mL
CCCCCCS(=O)(=O)c1ccc(Oc2ccc(C(=O)c3ccccc3)cc2)nc1 | >10 µg/mL
Nc1ncnc2c1ncn2[C@@H]1C=C(CO)[C@@H](O)[C@@H]1O | >0.7 µg/mL
O=c1c(-c2ccccc2)c(O)c2cc(S(=O)(=O)NCc3ccccc3)cnc2n1O | <100 µM
Nc1ncnc2c1ncn2C[C@H](O)CO | >0.7 µg/mL
Nc1nc(N)nc(OC[C@H]2CC[C@@H](CO)O2)n1 | >250 µM
CCS(=O)(=O)c1ccc(Oc2ccc(C(=O)c3ccccc3)cc2)nc1 | >10 µg/mL
CCOC(=O)c1c(-c2ccc(CCc3ccncc3)cc2)c2cccnc2n(O)c1=O | <100 µM
CC(CC(C)C(O)C(C)C(=O)O)C(O)CC(=O)c1ccc(N)cc1 | >100 µg/mL